Compound potency records, mixed from different reports. Data source: NIAID ChemDB in PubChem.

Common to all: growth or infection tests; agent: Mycobacterium avium intracellulare

Rows are shuffled and stem from different studies. An empty or dashed field is not shown. A number after MIC or MFC names an inhibition level or a share of isolates.

smiles | conditions | endpoint | read by | strain | value
C[C@@H]1CN(c2c(F)c(N)c3c(=O)c(C(=O)O)cn(C4CC4)c3c2F)C[C@H](C)N1 | - | MIC50 | - | 16 isolates | 6.25 µg/mL
O=C1c2nc3ccccc3c3ccnc(c23)C2C=CC=CC12 | - | MIC | - | - | 0.39 µg/mL
NC[C@H]1O[C@H](O[C@H]2[C@H](O)[C@@H](O[C@H]3O[C@H](CO)[C@@H](O)[C@H](N)[C@H]3O)[C@H](N)C[C@@H]2N)[C@H](O)[C@@H](O)[C@@H]1O | - | MIC | - | N-481 (HIV-) | 4 µg/mL
CC[C@@H](CO)NCCN[C@@H](CC)CO | - | MIC | - | ATCC 13950 | 8 µg/mL
CCn1cc(C(=O)O)c(=O)c2cc(F)c(N3CCNCC3)cc21 | - | MIC50 | - | 16 isolates | >100 µg/mL
CO[C@H]1/C=C/O[C@@]2(C)Oc3c(C)c(O)c4c(O)c(c(/C=N/N5CCN(C)CC5)c(O)c4c3C2=O)NC(=O)/C(C)=C\C=C\[C@H](C)[C@H](O)[C@@H](C)[C@@H](O)[C@@H](C)[C@H](OC(C)=O)[C@@H]1C | - | MIC50 | - | 17 isolates | 0.06 µg/mL
CCn1cc(C(=O)O)c(=O)c2cc(F)c(N3CCNCC3)cc21 | - | MIC | - | - | 24.5 µg/mL
CC1COc2c(N3CCN(C)CC3)c(F)cc3c(=O)c(C(=O)O)cn1c23 | - | MIC50 | - | 20 isolates | 4 µg/mL
CO[C@H]1/C=C/O[C@@]2(C)Oc3c(C)c(O)c4c(=O)c(c5oc6cc(N7CCN(CC(C)C)CC7)cc(=O)c6nc5c4c3=C2O)NC(=O)/C(C)=C\C=C\[C@H](C)[C@H](O)[C@@H](C)[C@@H](O)[C@@H](C)[C@H](OC(C)=O)[C@@H]1C | - | MIC90 | - | 31 strains | 0.1 µg/mL
Nc1nc(N)c2c(n1)NC(c1ccccc1)CC(c1ccc3c(c1)OCO3)=N2 | clinical isolate | MIC | MTT / broth dilution / absorbance | MNT1408 | >32 µg/mL
CC(=O)NCC1CN(c2ccc(C(C)=O)cc2)C(=O)O1 | - | MIC | - | 1 isolates | >250 µg/mL
CCn1cc(C(=O)O)c(=O)c2cc(F)c(N3CCNCC3)cc21 | - | MIC50 | - | 7 isolates | >16 µg/mL
COc1cc(O)cc(/C=C/c2cc3ccccc3s2)c1 | - | MIC | broth dilution | - | 32 µg/mL
N[C@@H]1CN(c2c(F)cc3c(=O)c(C(=O)O)cn([C@@H]4C[C@@H]4F)c3c2Cl)CC12CC2 | - | MIC90 | - | 20 strains | 6.25 µg/mL
CCn1cc(C(=O)O)c(=O)c2cc3c(cc21)OCO3 | - | MIC | - | - | >250 µg/mL
CO[C@H]1/C=C/O[C@@]2(C)Oc3c(C)c(O)c4c(O)c(c(/C=N/N5CCN(C)CC5)c(O)c4c3C2=O)NC(=O)/C(C)=C\C=C\[C@H](C)[C@H](O)[C@@H](C)[C@@H](O)[C@@H](C)[C@H](OC(C)=O)[C@@H]1C | - | MIC | - | ATCC 13950 | 0.5 µg/mL
CCCN1CCN(c2cc(=O)c3nc4c(oc3c2)c2c(=O)c3c(O)c(C)c5c(c34)=C(O)[C@@](C)(O/C=C/[C@H](OC)[C@@H](C)[C@@H](OC(C)=O)[C@H](C)[C@H](O)[C@H](C)[C@@H](O)[C@@H](C)/C=C/C=C(/C)C(=O)N2)O5)CC1 | - | MIC50 | - | 31 strains | 0.05 µg/mL
Nc1nc(N)c2c(n1)NC(c1ccc(Cl)cc1)CC(c1ccc3c(c1)OCO3)=N2 | clinical isolate | MIC | MTT / broth dilution / absorbance | MNT1408 | >32 µg/mL
Nc1nc(-n2cc(C(=O)O)c(=O)c3cc(F)c(N4CC(O)C4)c(Cl)c32)c(F)cc1F | - | MIC50 | - | 20 strains | 25 µg/mL
COc1c(N2CCNC(C)C2)c(F)cc2c(=O)c(C(=O)O)cn(C3CC3)c12 | - | MIC | - | - | 0.8 µg/mL
NC1CCN(c2nc3c(cc2F)c(=O)c(C(=O)O)cn3-c2ccc(F)cc2F)C1 | - | MIC90 | - | 16 isolates | >100 µg/mL
COc1c(N2CCNC(C)C2)c(F)cc2c(=O)c(C(=O)O)cn(C3CC3)c12 | - | MIC50 | - | 20 strains | 6.25 µg/mL
CO[C@H]1/C=C/O[C@@]2(C)Oc3c(C)c(O)c4c(O)c(c(/C=N/N5CCN(C)CC5)c(O)c4c3C2=O)NC(=O)/C(C)=C\C=C\[C@H](C)[C@H](O)[C@@H](C)[C@@H](O)[C@@H](C)[C@H](OC(C)=O)[C@@H]1C | - | MIC | - | CIPT 140310023 | 0.5 µg/mL
C[C@H]1COc2c(N3CCN(C)CC3)c(F)cc3c(=O)c(C(=O)O)cn1c23 | - | MIC90 | - | 20 strains | 25 µg/mL
CCCCCCCCCC(=O)O[C@@H]1[C@H](OC)[C@@H]([C@@H](O[C@H]2OC(C(=O)N[C@H]3CCC[C@@H](C)NC3=O)=C[C@H](O)[C@@H]2O)C(N)=O)O[C@H]1n1ccc(=O)[nH]c1=O | - | MIC50 | - | 17 isolates | 0.06 µg/mL
Nc1nc(N)c2c(n1)NC(c1ccc(C(F)(F)F)cc1)CC(c1ccc3c(c1)OCO3)=N2 | clinical isolate | MIC | MTT / broth dilution / absorbance | MNT1408 | >32 µg/mL
CCn1cc(C(=O)O)c(=O)c2ccc(-c3ccncc3)cc21 | - | MIC | - | - | 23.5 µg/mL
CCn1cc(C(=O)O)c(=O)c2cc(F)c(N3CCNC(C)C3)c(F)c21 | - | MIC90 | - | 16 isolates | 100 µg/mL
CO[C@H]1/C=C/O[C@@]2(C)Oc3c(C)c(O)c4c(O)c(c(/C=N/N5CCN(C)CC5)c(O)c4c3C2=O)NC(=O)/C(C)=C\C=C\[C@H](C)[C@H](O)[C@@H](C)[C@@H](O)[C@@H](C)[C@H](OC(C)=O)[C@@H]1C | - | MIC90 | - | 58 isolates | 3.13 µg/mL
CO[C@H]1/C=C/O[C@@]2(C)Oc3c(C)c(O)c4c(=O)c(c5oc6cc(N7CCN(CC(C)C)CC7)cc(=O)c6nc5c4c3=C2O)NC(=O)/C(C)=C\C=C\[C@H](C)[C@H](O)[C@@H](C)[C@@H](O)[C@@H](C)[C@H](OC(C)=O)[C@@H]1C | - | MBC | - | N-260 | 1 µg/mL
CCn1cc(C(=O)O)c(=O)c2cnc(N3CCCC3)nc21 | - | MIC | - | - | 330.9 µg/mL
COC1/C=C\C2=C[C@]34CN5CCCC/C=C\CCC(=C[C@@H](c6nccc7c6[nH]c6ccccc67)[C@H]3CC5)[C@@H]4N2CCC1 | - | MIC | - | - | 2 µg/mL
NC1CCN(c2c(F)cc3c(=O)c(C(=O)O)cn(C4CC4)c3c2Cl)C1 | - | MIC | - | - | 3.1 µg/mL
CC(C)N=c1cc2n(-c3ccc(Cl)cc3)c3ccccc3nc-2cc1Nc1ccc(Cl)cc1 | - | MIC | - | ATCC35761 | 3 µg/mL
NNC(=O)c1ccncc1 | - | MIC90 | - | 17 isolates | 16 µg/mL
NNC(=O)c1ccncc1 | - | MIC | - | - | 2 µg/mL
CO[C@H]1/C=C/O[C@@]2(C)Oc3c(C)c(O)c4c(O)c(c5c(c4c3C2=O)NC2(CCN(CC(C)C)CC2)N=5)=NC(=O)/C(C)=C\C=C\[C@H](CO)[C@H](O)[C@@H](C)[C@@H](O)[C@@H](C)[C@H](OC(C)=O)[C@@H]1C | - | MIC | - | CDC1 | 0.31 µg/mL
CN[C@@H]1[C@H](O[C@H]2[C@H](O[C@H]3[C@H](O)[C@@H](O)[C@H](N=C(N)N)[C@@H](O)[C@@H]3N=C(N)N)O[C@@H](C)[C@]2(O)C=O)O[C@@H](CO)[C@H](O)[C@H]1O | - | MBC | - | - | 8 µg/mL
CC[C@H]1OC(=O)[C@H](C)[C@@H](O[C@H]2C[C@@](C)(OC)[C@@H](O)[C@H](C)O2)[C@H](C)[C@@H](O[C@@H]2O[C@H](C)C[C@H](N(C)C)[C@H]2O)[C@](C)(OC)C[C@@H](C)C(=O)[C@H](C)[C@@H](O)[C@]1(C)O | - | MIC90 | - | 20 strains | 12.5 µg/mL
CCn1cc(C(=O)O)c(=O)c2ccc(C)nc21 | - | MIC | - | - | 462.5 µg/mL
NCC[C@H](O)C(=O)N[C@@H]1C[C@H](N)[C@@H](O[C@H]2O[C@H](CN)[C@@H](O)[C@H](O)[C@H]2O)[C@H](O)[C@H]1O[C@H]1O[C@H](CO)[C@@H](O)[C@H](N)[C@H]1O | - | MIC | - | - | 2 µg/mL
CC1COc2c(N3CCN(C)CC3)c(F)cc3c(=O)c(C(=O)O)cn1c23 | - | MIC90 | - | 16 isolates | 100 µg/mL

Repeating the first 4 entries:

smiles,conditions,endpoint,read by,strain,value
C[C@@H]1CN(c2c(F)c(N)c3c(=O)c(C(=O)O)cn(C4CC4)c3c2F)C[C@H](C)N1,-,MIC50,-,16 isolates,6.25 µg/mL
O=C1c2nc3ccccc3c3ccnc(c23)C2C=CC=CC12,-,MIC,-,-,0.39 µg/mL
NC[C@H]1O[C@H](O[C@H]2[C@H](O)[C@@H](O[C@H]3O[C@H](CO)[C@@H](O)[C@H](N)[C@H]3O)[C@H](N)C[C@@H]2N)[C@H](O)[C@@H](O)[C@@H]1O,-,MIC,-,N-481 (HIV-),4 µg/mL
CC[C@@H](CO)NCCN[C@@H](CC)CO,-,MIC,-,ATCC 13950,8 µg/mL